# Tested on: CfGluCl-1 (C. felis GluCl channel)
# Assay: Two microelectrode voltage clamp of Xenopus oocytes expressing CfGluCl-1
# Format: cell-based, Ctenocephalides felis
# Settings: experiment of FIG. 5B
# Description: The full-length cDNA encoding CfGluCl-1 in plasmid vector pBluescript (Stratagene, LaJolla, Calif.) is linearized and capped cRNA transcripts are synthesized using appropriate oligonucleotide primers and the mMESSAGE mMACHINE in vitro RNA transcription kit (Ambion). Xenopus laevis oocytes were prepared and injected using standard methods as described (Arena et al., 1991, Mol. Pharmacol. 40: 368-374; Arena et al, 1992, Mol. Brain Res. 15: 339-348). Adult female Xenopus laevis were anesthetized with 0.17% tricaine methanesulfonate and the ovaries were surgically removed and placed in a dish consisting of (mM): NaCl 82.5, KCl 2, MgCl2 1, CaCl2 1.8, HEPES 5 adjusted to pH 7.5 with NaOH (OR-2). Ovarian lobes were broken open, rinsed several times, and gently shaken in OR-2 containing 0.2% collagenase (Sigma, Type IA) for 2-5 hours. When approximately 50% of the follicular layers were removed, Stage V and VI oocytes were selected and placed in media consisting of (mM): NaCl 86, KCl 2, MgCl2 1, CaCl2 1.8, HEPES 5, Na pyruvate 2.5, theophylline 0.5, gentamicin 0.1 adjusted to pH 7.5 with NaOH (ND-96) for […] before injection. For most experiments, oocytes were injected with 10 ng of cRNA in 50 nl of RNase free water. Control oocytes were injected with 50 nl of water. […]
# Each curve represents the difference between the current measured with and without 10 μM glutamate. […]
compound,measurement,value
N[C@@H](CCC(=O)O)C(=O)O [glutamate],n (exponent of the concentration-response fit),2.13

# From US6358701B1, “DNA molecules encoding Ctenocephalides felis glutamate gated chloride channels” (Merck & Co., Inc., priority 1997, dated 2002)
